Measured values taken from patent US6596723B1, “Fungal efflux pump inhibitors” (Essential Therapeutics, Inc., priority 2001, dated 2003).

tested on: Candida albicans YEM15 (over-expressing the CDR1 and CDR2 pumps); type: cell-based; conditions: strain YEM15; concentration of efflux pump inhibitor necessary to reduce the fluconazole MIC 8-fold

Question: For `COc1ccc(N(C(=O)Nc2cccc(Cl)c2)C(C)c2nc3ccccc3c(=O)n2N2CCN(C)CC2)c(OC)c1` (centres unmarked) [Compound 1, 3-(3-Chloro-phenyl)-1-(2,4-dimethoxy-phenyl)-1-{1-[3-(4-methyl-piperazin-1-yl)-4-oxo-3,4-dihydro-quinazolin-2-yl]-ethyl}-urea], which MPC8 is on record?
Answer: 0.125 µg/mL

Question: For `COc1ccc(N(C(=O)Nc2cccc(Cl)c2)C(C)c2nc3ccccc3c(=O)n2N2CCN(CCOC(C)=O)CC2)c(OC)c1` (centres unmarked) [Compound 2, Acetic acid 2-[4-(2-{1-[3-(3-chloro-phenyl)-1-(2,4-dimethoxy-phenyl)-ureido]-ethyl}-4-oxo-4H-quinazolin-3-yl)-piperazin-1-yl]-ethylester], which MPC8 is on record?
Answer: <0.5 µg/mL

Question: With `COc1ccc(N(C(=O)Nc2cccc(Cl)c2)C(C)c2nc3ccccc3c(=O)n2N2CCN(CCO)CC2)c(OC)c1` (centres unmarked) [Compound 3, 3-(3-Chloro-phenyl)-1-(2,4-dimethoxy-phenyl)-1-(1-{3-[4-(2-hydroxy-ethyl)-piperazin-1-yl]-4-oxo-3,4-dihydro-quinazolin-2-yl}-ethyl)-urea] as the compound, how does the MPC8 read?
Answer: 0.03 µg/mL

Question: For `COc1ccc(N(C(=O)Nc2cccc(Cl)c2)C(C)c2nc3ccccc3c(=O)n2N2CCN(C)CC2)c(C)c1` (centres unmarked) [Compound 5, 3-(3-Chloro-phenyl)-1-(4-methoxy-2-methyl-phenyl)-1-{1-[3-(4-methyl-piperazin-1-yl)-4-oxo-3,4-dihydro-quinazolin-2-yl]-ethyl}-urea], which MPC8 is on record?
Answer: 4 µg/mL

Question: How did the MPC8 turn out when `COc1ccc(N(C(=O)Nc2ccc(Cl)cc2)C(C)c2nc3ccccc3c(=O)n2N2CCN(C)CC2)c(OC)c1` (centres unmarked) [Compound 7, 3-(4-Chloro-phenyl)-1-(2,4-dimethoxy-phenyl)-1-{1-[3-(4-methyl-piperazin-1-yl)-4-oxo-3,4-dihydro-quinazolin-2-yl]-ethyl}-urea] was run?
Answer: 1 µg/mL

Question: With `COc1ccc(N(C(=O)Nc2ccccc2OC)C(C)c2nc3ccccc3c(=O)n2N2CCN(C)CC2)c(OC)c1` (centres unmarked) [Compound 9, 1-(2,4-Dimethoxy-phenyl)-3-(2-methoxy-phenyl)-1-{1-[3-(4-methyl-piperazin-1-yl)-4-oxo-3,4-dihydro-quinazolin-2-yl]-ethyl}-urea] as the compound, how does the MPC8 read?
Answer: 16 µg/mL

Question: For `COc1ccc(N(C(C)c2nc3ccccc3c(=O)n2N2CCN(C)CC2)S(=O)(=O)c2ccc(Cl)cc2)c(OC)c1` (centres unmarked) [Compound 10, 4-Chloro-N-(2,4-dimethoxy-phenyl)-N-{1-[3-(4-methyl-piperazin-1-yl)-4-oxo-3,4-dihydro-quinazolin-2-yl]-ethyl}-benzenesulfonamide], which MPC8 is on record?
Answer: 32 µg/mL

Question: Which MPC8 does the source give for `COc1ccc(N(C(C)c2nc3ccccc3c(=O)n2N2CCN(C)CC2)S(=O)(=O)c2ccccc2Cl)c(OC)c1` (centres unmarked) [Compound 16, 2-Chloro-N-(2,4-dimethoxy-phenyl)-N-{1-[3-(4-methyl-piperazin-1-yl)-4-oxo-3,4-dihydro-quinazolin-2-yl]-ethyl}-benzenesulfonamide] here?
Answer: 32 µg/mL

Question: `COc1ccc(N(C(=O)c2ccc(C)cc2)C(C)c2nc3ccccc3c(=O)n2N2CCN(C)CC2)c(OC)c1` (centres unmarked) [Compound 26, N-(2,4-Dimethoxy-phenyl)4-methyl-N-{1-[3-(4-methyl-piperazin-1-yl)-4-oxo-3,4-dihydro-quinazolin-2-yl)-ethyl}-benzamide] was tested. Which MPC8 did it give?
Answer: 4 µg/mL

Question: For `COc1ccc(N(C(=O)c2cccc(Cl)c2)C(C)c2nc3ccccc3c(=O)n2N2CCN(C)CC2)c(OC)c1` (centres unmarked) [Compound 27, 3-Chloro-N-(2,4-dimethoxy-phenyl)-N-{1-[3-(4-methyl-piperazin-1-yl)-4-oxo-3,4-dihydro-quinazolin-2-yl)-ethyl}-benzamide], which MPC8 is on record?
Answer: 8 µg/mL

Question: With `COc1ccc(N(C(=O)c2ccc(Cl)cc2)C(C)c2nc3ccccc3c(=O)n2N2CCN(C)CC2)c(OC)c1` (centres unmarked) [Compound 28, 4-Chloro-N-(2,4-dimethoxy-phenyl)-N-{1-[3-(4-methyl-piperazin-1-yl)-4-oxo-3,4-dihydro-quinazolin-2-yl)-ethyl}-benzamide] as the compound, how does the MPC8 read?
Answer: 4 µg/mL

Question: Which MPC8 does the source give for `COc1ccc(N(C(=O)c2ccccc2Cl)C(C)c2nc3ccccc3c(=O)n2N2CCN(C)CC2)c(OC)c1` (centres unmarked) [Compound 29, 2-Chloro-N-(2,4-dimethoxy-phenyl)-N-{1-[3-(4-methyl-piperazin-1-yl)-4-oxo-3,4-dihydro-quinazolin-2-yl)-ethyl}-benzamide] here?
Answer: 4 µg/mL

Question: How did the MPC8 turn out when `COc1ccc(C(=O)N(c2ccc(OC)cc2OC)C(C)c2nc3ccccc3c(=O)n2N2CCN(C)CC2)cc1` (centres unmarked) [Compound 30, N-(2,4-Dimethoxy-phenyl)-4-methoxy-N-{1-[3-(4-methyl-piperazin-1-yl)-4-oxo-3,4-dihydro-quinazolin-2-yl]-ethyl}-benzamide] was run?
Answer: 16 µg/mL

Question: Which MPC8 does the source give for `COc1ccc(N(C(=O)NC(C)C)C(C)c2nc3ccc(Cl)cc3c(=O)n2N2CCN(C)CC2)c(OC)c1` (centres unmarked) [Compound 32, 1-{1-[6-Chloro-3-(4-methyl-piperazin-1-yl)-4-oxo-3,4-dihydro-quinazolin-2-yl]-ethyl}-1-(2,4-dimethoxy-phenyl)-3-isopropyl-urea] here?
Answer: 4 µg/mL

Question: Which MPC8 does the source give for `COc1cc(N(C(=O)Nc2cccc(Cl)c2)C(C)c2nc3ccccc3c(=O)n2N2CCN(C)CC2)cc(OC)c1OC` (centres unmarked) [Compound 33, 3-(3-Chloro-phenyl)-1-{1-[3-(4-methyl-piperazin-1-yl)-4-oxo-3,4-dihydro-quinazolin-2-yl]-ethyl}-1-(3,4,5-trimethoxy-phenyl)-urea] here?
Answer: 8 µg/mL

Question: `COc1ccc(NC(=O)N(c2ccc3c(c2)OCO3)C(C)c2nc3ccccc3c(=O)n2N2CCN(C)CC2)cc1` (centres unmarked) [Compound 34, 1-Benzo[1,3]dioxol-5-yl-3-(4-methoxy-phenyl)-1-{1-[3-(4-methyl-piperazin-1-yl)-4-oxo-3,4-dihydro-quinazolin-2-yl]-ethyl}-urea] was tested. Which MPC8 did it give?
Answer: 8 µg/mL

Question: With `COc1ccc(N(C(=O)Oc2ccccc2Cl)C(C)c2nc3ccccc3c(=O)n2N2CCN(C)CC2)c(OC)c1` (centres unmarked) [Compound 36, (2,4-Dimethoxy-phenyl)-{1-[3-(4-methyl-piperazin-1-yl)-4-oxo-3,4-dihydro-quinazolin-2-yl]-ethyl}-carbamic acid 2-chloro-phenyl ester] as the compound, how does the MPC8 read?
Answer: 16 µg/mL

Question: For `COc1ccc(OC(=O)N(c2ccc(OC)cc2OC)C(C)c2nc3ccccc3c(=O)n2N2CCN(C)CC2)cc1` (centres unmarked) [Compound 37, (2,4-Dimethoxy-phenyl)-{1-[3-(4-methyl-piperazin-1-yl)-4-oxo-3,4-dihydro-quinazolin-2-yl]-ethyl}-carbamc acid 4-methoxy-phenyl ester], which MPC8 is on record?
Answer: 32 µg/mL

Question: How did the MPC8 turn out when `COc1ccc(N(C(=O)Nc2ccccc2)C(C)c2nc3ccc(Cl)cc3c(=O)n2CCN2C(=O)c3ccccc3C2=O)c(OC)c1` (centres unmarked) [Compound 39, 1-(1-{6-Chloro-3-[2-(1,3-dioxo-1,3-dihydro-isoindol-2-yl)-ethyl]-4-oxo-3,4-dihydro-quinazolin-2-yl}-ethyl)-1-(2,4-dimethoxy-phenyl)-3-phenyl-urea] was run?
Answer: ≦0.03 μg/ml

tested on: C. glabrata YEM19 (over-expressing the CgCDR1 and CgCDR2 pumps); type: cell-based, Candida glabrata; conditions: strain YEM19; efflux pump inhibitor concentration reducing fluconazole MIC 8-fold

Question: How did the MPC8 turn out when `COc1ccc(N(C(=O)Nc2cccc(Cl)c2)C(C)c2nc3ccccc3c(=O)n2N2CCN(C)CC2)c(OC)c1` (centres unmarked) [Compound 1, 3-(3-Chloro-phenyl)-1-(2,4-dimethoxy-phenyl)-1-{1-[3-(4-methyl-piperazin-1-yl)-4-oxo-3,4-dihydro-quinazolin-2-yl]-ethyl}-urea] was run?
Answer: 2 µg/mL

Question: For `COc1ccc(N(C(=O)Nc2cccc(Cl)c2)C(C)c2nc3ccccc3c(=O)n2N2CCN(CCOC(C)=O)CC2)c(OC)c1` (centres unmarked) [Compound 2, Acetic acid 2-[4-(2-{1-[3-(3-chloro-phenyl)-1-(2,4-dimethoxy-phenyl)-ureido]-ethyl}-4-oxo-4H-quinazolin-3-yl)-piperazin-1-yl]-ethylester], which MPC8 is on record?
Answer: 2 µg/mL

Question: How did the MPC8 turn out when `COc1ccc(N(C(=O)Nc2cccc(Cl)c2)C(C)c2nc3ccccc3c(=O)n2N2CCN(CCO)CC2)c(OC)c1` (centres unmarked) [Compound 3, 3-(3-Chloro-phenyl)-1-(2,4-dimethoxy-phenyl)-1-(1-{3-[4-(2-hydroxy-ethyl)-piperazin-1-yl]-4-oxo-3,4-dihydro-quinazolin-2-yl}-ethyl)-urea] was run?
Answer: 1 µg/mL

Question: With `COc1ccc(N(C(=O)Oc2ccccc2)C(C)c2nc3ccccc3c(=O)n2N2CCN(C)CC2)c(OC)c1` (centres unmarked) [Compound 11, (2,4-Dimethoxy-phenyl)-{1-[3-(4-methyl-piperazin-1-yl)-4-oxo-3,4-dihydro-quinazolin-2-yl]-ethyl}-carbamic acid phenyl ester] as the compound, how does the MPC8 read?
Answer: 32 µg/mL
